Measurements from “University of Dundee, Small-Polar-MMV Screening Library” (2021), ChEMBL document CHEMBL3988442.

Each number is a percent effect as filed. The record does not define 0% and 100%; most values in the screen are far below 50% and negative numbers occur (in some assays of this library far below -100). Many other results are left out here, so strong results are more common than in the screen.

Mtb glucose medium: 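Phenotypic screen: M. tuberculosis growth, glucose 7H9 medium, 3 days; the read-out is not stated. Concentration: 500 µM. The record gives no direction; compounds that gave an IC50 in retests scored well above the rest, so higher reads as more growth inhibition. About 18,000 compounds were tested under these conditions; 7.9% (about 1,400) showed 50% or more at least once.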
Mtb cholesterol medium: 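Growth of Mycobacterium tuberculosis over 4 days (cholesterol / DPPC medium with tyloxapol); the read-out is not stated. Compounds at 500 µM. Direction is inferred from retests: higher values go with more growth inhibition. Size under these conditions: about 18,000 compounds, about 900 of them at 50% or above in at least one test.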

For CCn1ncnc1CN1CCCC(CS(C)(=O)=O)C1 (stereo not drawn) the result was Mtb glucose medium: 0.4206%.
For CCCSc1ccc(NC(=O)NCCN)cc1 the result was Mtb glucose medium: 76.87%; Mtb cholesterol medium: 62.7%.
For Cc1ncsc1CCN(C)C(=O)c1cnc(O)cn1 the result was Mtb glucose medium: 5.499%.
For NCCCC(=O)N1CCc2ccccc2C1 the result was Mtb glucose medium: 14.7%.
For CCNC(=O)CN1CCN(c2cc(C)nc(C)n2)CC1 the result was Mtb cholesterol medium: 0.961%.
For O=C(CN1CCn2ccnc2C1)Nc1ccc(Cl)cn1 the result was Mtb glucose medium: 27.15%.
For NCC1CN(Cc2ccccc2)CCO1 (stereo not drawn) the result was Mtb glucose medium: 19.98%; Mtb cholesterol medium: 11.02%.
For CC(CN)Cn1cccn1 (stereo not drawn) the result was Mtb glucose medium: 5.763%.
For CC(C1CC1)N(CCC#N)C(=O)N(C)C (stereo not drawn) the result was Mtb glucose medium: 2.462%.
For CC(C)Sc1ncccc1C(=O)NCC1CCOC1 (stereo not drawn) the result was Mtb cholesterol medium: -0.9223%.
For CN1CN(c2cccc(F)c2C#N)CC1=O the result was Mtb cholesterol medium: -3.434%.
For Cc1cc(=O)[nH]c(C2(N)CCCC2)n1 the result was Mtb glucose medium: 11.52%; Mtb cholesterol medium: -2.848%.
For OCC1(CNCc2ccccc2)CC1 the result was Mtb glucose medium: -1.815%; Mtb cholesterol medium: -10.43%.
For CCCc1ccc(S(=O)(=O)N2CCNCC2)cc1 the result was Mtb glucose medium: 56.44%.
For N#Cc1ccnc(N2CCOCC2)c1 the result was Mtb glucose medium: 7.55%.
For CNC(=O)CCN1CCN(c2ccc(F)cc2Cl)CC1 the result was Mtb glucose medium: 2.511%.
For O=C(NCCSCCCO)c1cccc2cc[nH]c12 the result was Mtb glucose medium: -6.146%; Mtb cholesterol medium: -7.085%.
For CC(C)N1CCC(NC(=O)c2ccoc2)CC1 the result was Mtb cholesterol medium: 1.025%.
For O=S(=O)(NCCO)c1ccc2ccccc2c1 the result was Mtb glucose medium: 9.139%; Mtb cholesterol medium: 7.78%.
For CN1CCCN(C(=O)c2cc(F)cc(F)c2)CC1 the result was Mtb glucose medium: 8.232%.
For CC(=O)Nc1cccc(CSC(C)CCO)c1 (stereo not drawn) the result was Mtb glucose medium: 20.4%.
For COc1ccc(S(=O)(=O)N2CCCCC2)cc1OC the result was Mtb glucose medium: 33.39%.
For CC(O)(CN)c1cccs1 (stereo not drawn) the result was Mtb glucose medium: 12.82%.
For c1cn(C2CCCNCC2)nn1 (stereo not drawn) the result was Mtb glucose medium: -5.606%; Mtb cholesterol medium: -11.87%.
For COCCN1CCC(CNC(=O)N2CCC(C)CC2)C1 (stereo not drawn) the result was Mtb glucose medium: 57.15%; Mtb cholesterol medium: 64.62%.
For COCC(C)(NC(=O)CCc1ccccc1Cl)C(N)=O (stereo not drawn) the result was Mtb glucose medium: 20.41%.
For CNc1nnc(SCC(=O)N2CCCCCC2)s1 the result was Mtb glucose medium: 31.41%.
For NCCOc1ncc(C(F)(F)F)cc1Cl the result was Mtb glucose medium: 49.15%; Mtb cholesterol medium: 31.97%.
For NC(=O)C(Sc1nncs1)c1ccc(Br)cc1 (stereo not drawn) the result was Mtb glucose medium: 68.09%; Mtb cholesterol medium: 72.08%.
For Cc1cc(C)c(CNC(=O)N(C)C)c(=O)[nH]1 the result was Mtb cholesterol medium: 7.881%.
For Cn1ccnc(Sc2nnnn2CC2CCCO2)c1=O (stereo not drawn) the result was Mtb glucose medium: 14.99%.
For COc1cc(F)cc(CNC(=O)Nc2ncco2)c1 the result was Mtb glucose medium: -4.308%.
For CCc1noc(CC2CCNCC2)n1 the result was Mtb glucose medium: 2.115%.
For COc1ccccc1CCNC(=O)CN the result was Mtb glucose medium: 13.35%; Mtb cholesterol medium: 2.516%.
For CCc1nn(C)c(CC)c1S(=O)(=O)N1CCCC1CN (stereo not drawn) the result was Mtb glucose medium: 24.52%.
For Cc1nc(C(=O)N2CCSCC2)c(C)s1 the result was Mtb glucose medium: 10%.
For COc1c(Br)cccc1CN the result was Mtb glucose medium: 34.64%.
For Cc1cc(N2CCOCC2CCO)ncn1 (stereo not drawn) the result was Mtb cholesterol medium: -3.029%.
For CC(C)C(=O)NCCCNC(=O)c1ccc(F)cc1O the result was Mtb glucose medium: 64.39%; Mtb cholesterol medium: 50.74%.
For CC[C@@H](CO)NCc1cnn(-c2ccc(F)cc2)c1 the result was Mtb glucose medium: 26.35%; Mtb cholesterol medium: 13.79%.
For NS(=O)(=O)c1ccc(OCC2CCNC2)cc1 (stereo not drawn) the result was Mtb glucose medium: -0.4765%.